Pooled drug test results. Numbers come from NIAID ChemDB, via PubChem.

Common to all: whole-cell or culture tests; agent: Herpes simplex virus 1; cell line: VERO; measure: inhibition

Percent inhibition refers to the dose given; in toxicity tests it is the harm to the cells.

| smiles | strain | method | tested at | result |
|---|---|---|---|---|
| COc1ccc(Cn2c(O)c(N=O)c(=O)[nH]c2=O)cc1 | Leningrad/248/88 | cytopathic effect | 100 µg/mL | 45% |
| C[C@@]1(CO)[C@H](O)CC[C@@]2(C)[C@H]1CC[C@H]1C[C@@H]3C[C@@]12CC[C@]3(O)CO |  | plaque count | 0.005 µg/mL | 100% |
| Oc1cc(O)c2c(c1)O[C@H](c1cc(O)c(O)c(O)c1)[C@H](O)C2 | 17 syn + | MTT | 200 µM | 59% |
| NC(=S)N/N=C\c1nccc2ccccc12 | PH | plaque count | 40 µM | 97% |
| O=C(O)c1cc(O)c(O)c(O)c1 | 17 syn + | MTT | 2 µM | 9% |
| O=C(O)P(=O)(O)O | TK- | cytopathic effect | 79.4 µM | >25% |
| O=Nc1c(O)n(-c2cccc(C(F)(F)F)c2)c(=O)[nH]c1=O | Leningrad/248/88 | cytopathic effect | 100 µg/mL | 50% |
| O=c1c(O)c(-c2ccc(O)c(O)c2)oc2cc(O)cc(O)c12 |  |  | 60 µg/mL | 65% |
| O=C1c2cc3ccoc3cc2O[C@@H]2COc3cc4c(cc3[C@H]12)OCO4 | KOS | plaque count | 50 µg/mL | 15.4% |
| NC(=S)N/N=C/c1ccccn1 | PH | plaque count | 40 µM | 14% |
| O=c1c2c3c(sc2nc(Nc2ccccc2)n1/N=C/c1ccc([N+](=O)[O-])cc1)CCCC3 |  | plaque count | 0.3 µg/mL | 0% |
| CC1(C)S[C@@H]2[C@H](NC(=O)Cc3ccccc3)C(=O)N2[C@H]1C(=O)O |  | plaque count | 1000 µM | 0% |
| O=Nc1c(O)n(-c2ccc(Br)cc2)c(=O)[nH]c1=O | Leningrad/248/88 | cytopathic effect | 100 µg/mL | 30% |
| Nn1c(Nc2ccccc2)nc2sc3c(c2c1=O)CCC3 |  | plaque count | 0.3 µg/mL | 80% |
| COP(=O)(CC(=O)OC[C@H]1O[C@@H](n2cc(CCCl)c(=O)[nH]c2=O)C[C@@H]1O)OC | BRAND | cytopathic effect | 6.8 µM | >25% |
| COc1c2c(cc3ccoc13)C(=O)[C@@]1(O)c3cc4c(cc3OC[C@H]1O2)OCO4 | KOS | plaque count | 50 µg/mL | 56.6% |
| NC(=S)N/N=C\c1ncnc2nc[nH]c12 | PH | plaque count | 40 µM | 15% |
| CC(C)(C)n1c(O)c(N=O)c(=O)[nH]c1=O | Leningrad/248/88 | cytopathic effect | 100 µg/mL | 50% |
| O=c1[nH]c(=O)n([C@H]2C[C@H](O)[C@@H](CO)O2)cc1I | BRAND | cytopathic effect | 0.3 µM | >25% |
| O=C(O[C@@H]1Cc2c(O)cc(O)cc2O[C@@H]1c1cc(O)c(O)c(O)c1)c1cc(O)c(O)c(O)c1 | 17 syn + | MTT | 20 µM | 71% |

Rows are shuffled and stem from different studies. Blank or dashed fields: not listed here.